# Laboratory results from patent publication US20240122867A1, “CORONAL PROTEIN-COATED NANOPARTICLES AND USES THEREOF” (UNIVERSITY OF CENTRAL FLORIDA RESEARCH FOUNDATION, INC., priority 2021, published 2024).
# B1: Band 3 anion transport protein (protein, UniProt P04919 1-929, looked up)
# Band 3 anion transport protein: MGDMRDHEEVLEIPDRDSEEELENIIGQIAYRDLTIPVTEMQDPEALPTEQTATDYVPSSTSTPHPSSGQVYVELQELMMDQRNQELQWVEAAHWIGLEENLREDGVWGRPHLSYLTFWSLLELQKVFSKGTFLLGLAETSLAGVANHLLDCFIYEDQIRPQDREELLRALLLKRSHAEDLGNLEGVKPAVLTRSGGASEPLLPHQPSLETQLYCGQAEGGSEGPSTSGTLKIPPDSETTLVLVGRANFLEKPVLGFVRLKEAVPLEDLVLPEPVGFLLVLLGPEAPHVDYTQLGRAAATLMTERVFRITASMAHNREELLRSLESFLDCSLVLPPTDAPSEKALLNLVPVQKELLRRRYLPSPAKPDPNLYNTLDLNGGKGGPGDEDDPLRRTGRIFGGLIRDIRRRYPYYLSDITDALSPQVLAAVIFIYFAALSPAVTFGGLLGEKTRNLMGVSELLISTAVQGILFALLGAQPLLVLGFSGPLLVFEEAFFSFCESNNLEYIVGRAWIGFWLILLVMLVVAFEGSFLVQYISRYTQEIFSFLISLIFIYETFSKLIKIFQDYPLQQTYAPVVMKPKPQGPVPNTALFSLVLMAGTFLLAMTLRKFKNSTYFPGKLRRVIGDFGVPISILIMVLVDSFIKGTYTQKLSVPDGLKVSNSSARGWVIHPLGLYRLFPTWMMFASVLPALLVFILIFLESQITTLIVSKPERKMIKGSGFHLDLLLVVGMGGVAALFGMPWLSATTVRSVTHANALTVMGKASGPGAAAQIQEVKEQRISGLLVSVLVGLSILMEPILSRIPLAVLFGIFLYMGVTSLSGIQLFDRILLLFKPPKYHPDVPFVKRVKTWRMHLFTGIQIICLAVLWVVKSTPASLALPFVLILTVPLRRLILPLIFRELELQCLDGDDAKVTFDEENGLDEYDEVPMPV
# B2: Immunoglobulin heavy constant mu (protein, UniProt P01872 1-454, looked up)
# Immunoglobulin heavy constant …: SQSFPNVFPLVSCESPLSDKNLVAMGCLARDFLPSTISFTWNYQNNTEVIQGIRTFPTLRTGGKYLATSQVLLSPKSILEGSDEYLVCKIHYGGKNRDLHVPIPAVAEMNPNVNVFVPPRDGFSGPAPRKSKLICEATNFTPKPITVSWLKDGKLVESGFTTDPVTIENKGSTPQTYKVISTLTISEIDWLNLNVYTCRVDHRGLTFLKNVSSTCAASPSTDILTFTIPPSFADIFLSKSANLTCLVSNLATYETLNISWASQSGEPLETKIKIMESHPNGTFSAKGVASVCVEDWNNRKEFVCTVTHRDLPSPQKKFISKPNEVHKHPPAVYLLPPAREQLNLRESATVTCLVKGFSPADISVQWLQRGQLLPQEKYVTSAPMPEPGAPGFYFTHSILTVTEEEWNSGETYTCVVGHEALPHLVTERTVDKSTGKPTLYNVSLIMSDTGGTCY
# B3: Inter-alpha-trypsin inhibitor heavy chain H1 (protein, UniProt Q61702 32-668, looked up)
# Inter-alpha-trypsin inhibitor …: PRGSEKRHAVDTSVNGVSIKSLKVNCKVTSRFAHYVITSQVVNNADKAREVAFDVEIPKTAFISDFAITSDGKAFIGDIKDKVTAWKQYRKAAVLGESAGLVRASGRNMEQFTIHITVGAQSKATFRLTYEEVLKRRLMQYDITIKVRPKQLVQHFEIDVDIFEPQGISKLDAQASFLSEELAAQTIKKSFSGKKGHVLFRPTVSQQQSCPTCSTSLLNGEFKVTYDVNRDKLCDLLVANNYFTHFFAPKNLTNMSKNLVFVIDISGSMEGQKVRQTKEALLKILEDMRPVDNFDLVLFGSKVQSWKGSLVPASNANLQAAQDFVRRFSLAGATNLNGGLLRGIEILNKAQGSHPELSSPASILIMLTDGEPTEGETDRSQILKNVRNAIRGRFPLYNLGFGHDLDFSFLEVMSTENNGWAQRIYEDHDATQQLQGFYNQVANPLLTDVELQYPQDAVLALTQHRHKQYYDGSEIVVAGRIANHKLNTFKADVRARGEKQEFRATCLVDEEEMKKLLRERGHVLENHVERLWAYLTIQELLAKRMKTEGEERANLSSQVLKMSLDYHFVTPLTSLTIRGLTDEDGLEPTIDKPLEDSQPLEMVGPRRTFVLSAIQPSPTAHPIDSKLPLRVTGVDTD
# B4: Serum amyloid P-component (protein, UniProt P12246 21-224, looked up)
# Serum amyloid P-component: QTDLKRKVFVFPRESETDHVKLIPHLEKPLQNFTLCFRTYSDLSRSQSLFSYSVKGRDNELLIYKEKVGEYSLYIGQSKVTVRGMEEYLSPVHLCTTWESSSGIVEFWVNGKPWVKKSLQREYTVKAPPSIVLGQEQDNYGGGFQRSQSFVGEFSDLYMWDYVLTPQDILFVYRDSPVNPNILNWQALNYEINGYVVIRPRVWD
# B5: Apolipoprotein M (protein, UniProt Q9Z1R3 1-190, looked up)
# Apolipoprotein M: MFHQVWAALLSLYGLLFNSMNQCPEHSQLTALGMDDTETPEPHLGLWYFIAGAASTTEELATFDPVDNIVFNMAAGSAPRQLQLRATIRTKSGVCVPRKWTYRLTEGKGNMELRTEGRPDMKTDLFSSSCPGGIMLKETGQGYQRFLLYNRSPHPPEKCVEEFQSLTSCLDFKAFLVTPRNQEACPLSSK
# B6: Gelsolin (protein, UniProt P13020 26-780, looked up)
# Gelsolin: ATTSRGRAQERAPQSRVSEARPSTMVVEHPEFLKAGKEPGLQIWRVEKFDLVPVPPNLYGDFFTGDAYVILKTVQLRNGNLQYDLHYWLGNECSQDESGAAAIFTVQLDDYLNGRAVQHREVQGFESSTFSGYFKSGLKYKKGGVASGFKHVVPNEVVVQRLFQVKGRRVVRATEVPVSWDSFNNGDCFILDLGNNIYQWCGSGSNKFERLKATQVSKGIRDNERSGRAQVHVSEEGGEPEAMLQVLGPKPALPEGTEDTAKEDAANRRLAKLYKVSNGAGSMSVSLVADENPFAQGALRSEDCFILDHGRDGKIFVWKGKQANMEERKAALKTASDFISKMQYPRQTQVSVLPEGGETPLFKQFFKNWRDPDQTDGPGLGYLSSHIANVERVPFDAATLHTSTAMAAQHGMDDDGTGQKQIWRIEGSNKVPVDPATYGQFYGGDSYIILYNYRHGGRQGQIIYNWQGAQSTQDEVAASAILTAQLDEELGGTPVQSRVVQGKEPAHLMSLFGGKPMIIYKGGTSRDGGQTAPASIRLFQVRASSSGATRAVEVMPKSGALNSNDAFVLKTPSAAYLWVGAGASEAEKTGAQELLKVLRSQHVQVEEGSEPDAFWEALGGKTAYRTSPRLKDKKMDAHPPRLFACSNRIGRFVIEEVPGELMQEDLATDDVMLLDTWDQVFVWVGKDSQEEEKTEALTSAKRYIETDPANRDRRTPITVVRQGFEPPSFVGWFLGWDDNYWSVDPLDRALAELAA
# B7: Antithrombin-III (protein, UniProt P32261 33-465, looked up)
# Antithrombin-III: HGNPVDDICIAKPRDIPVNPLCIYRSPGKKATEEDGSEQKVPEATNRRVWELSKANSRFATNFYQHLADSKNDNDNIFLSPLSISTAFAMTKLGACNDTLKQLMEVFKFDTISEKTSDQIHFFFAKLNCRLYRKANKSSDLVSANRLFGDKSLTFNESYQDVSEVVYGAKLQPLDFKENPEQSRVTINNWVANKTEGRIKDVIPQGAINELTALVLVNTIYFKGLWKSKFSPENTRKEPFYKVDGQSCPVPMMYQEGKFKYRRVAEGTQVLELPFKGDDITMVLILPKPEKSLAKVEQELTPELLQEWLDELSETMLVVHMPRFRTEDGFSLKEQLQDMGLIDLFSPEKSQLPGIVAGGRDDLYVSDAFHKAFLEVNEEGSEAAASTSVVITGRSLNPNRVTFKANRPFLVLIREVALNTIIFMGRVANPCVN
# B8: Alpha-1B-glycoprotein (protein, UniProt Q19LI2 19-512, looked up)
# Alpha-1B-glycoprotein: NTLMLDSGSEPKLWAEPQSLLEPWANLTLVCAVDLPTKVFELIQNGWFLSQVRLETQVLSYRFSLGAITSNNSGIYRCRCGVEPPVDIHLPALNKWTMLSNAVEVTGKEPLPRPLAHADPVDWITPGGLPVYVMCQVAMRGVTYLLRQEGVDGVQKPDVQHKGTAGFLIYKPGNYSCSYLTHAAGEPSEPSDIVTIKMYASQAPPTLCLMGNYLMIYPQKTYETLACKAPRNAAEFQLRQGGKVLKIHGFSPTRDAILYYVNLKELDNPGPFTCRYRMHKYMHVWSEDSKPVELMWSDETLQAPVLTAEPSSRDLEPGSTVQLRCTAPVSGLRFGLQRQGKPELVVVQMLNSSGTEAVFELHNISTIDSGNYSCIYMEQAPPFSGSSSSEPVELRVNGPPPKPRLEALWKSTVHLGQEAIFRCHGHVPRVSMELVREGFKTPFAVASTRSTSAYLKLLFVGPQHAGNYSCRYTALPPFTFESGISDPVEVIVEG
# B9: CD5 antigen-like (protein, UniProt Q9QWK4 22-352, looked up)
# CD5 antigen-like: ESPTKVQLVGGAHRCEGRVEVEHNGQWGTVCDDGWDRRDVAVVCRELNCGAVIQTPRGASYQPPASEQRVLIQGVDCNGTEDTLAQCELNYDVFDCSHEEDAGAQCENPDSDLLFIPEDVRLVDGPGHCQGRVEVLHQSQWSTVCKAGWNLQVSKVVCRQLGCGRALLTYGSCNKNTQGKGPIWMGKMSCSGQEANLRSCLLSRLENNCTHGEDTWMECEDPFELKLVGGDTPCSGRLEVLHKGSWGSVCDDNWGEKEDQVVCKQLGCGKSLHPSPKTRKIYGPGAGRIWLDDVNCSGKEQSLEFCRHRLWGYHDCTHKEDVEVICTDFDV
# B10: Sulfhydryl oxidase 1 (protein, UniProt Q8BND5 33-748, looked up)
# Sulfhydryl oxidase 1: ARLSVLYSSSDPLTLLDADSVRPTVLGSSSAWAVEFFASWCGHCIAFAPTWKELANDVKDWRPALNLAVLDCAEETNSAVCREFNIAGFPTVRFFQAFTKNGSGATLPGAGANVQTLRMRLIDALESHRDTWPPACPPLEPAKLNDIDGFFTRNKADYLALVFEREDSYLGREVTLDLSQYHAVAVRRVLNTESDLVNKFGVTDFPSCYLLLRNGSVSRVPVLVESRSFYTSYLRGLPGLTRDAPPTTATPVTADKIAPTVWKFADRSKIYMADLESALHYILRVEVGKFSVLEGQRLVALKKFVAVLAKYFPGQPLVQNFLHSINDWLQKQQKKRIPYSFFKAALDSRKEDAVLTEKVNWVGCQGSEPHFRGFPCSLWVLFHFLTVQANRYSEAHPQEPADGQEVLQAMRSYVQFFFGCRDCADHFEQMAAASMHQVRSPSNAILWLWTSHNRVNARLSGALSEDPHFPKVQWPPRELCSACHNELNGQVPLWDLGATLNFLKAHFSPANIVIDSSASRHTGRRGSPEATPELVMDTLKLESRNSVLGHEQAASAESPGATALDVPAEKPEASGPQELYTGLRMGGASPGQGPPERMEDHQRDMQENAPGQQHLSKRDTEALFLPEVNHLQGPLELRRGGRSPKQLAPILEEEPEALAIQGQGQWLQVLGGGISHLDISLCVGLYSVSFMGLLAMYTYFRARLRTPKGHASYPTA
# Test system: coronal proteins on NPs
# Set-up: species or system mouse
# Settings: HBPE-NPs incubated 1 h with IAV day 5 (V5) mouse sera, 20:1 NP:sera, centrifuged and washed
row,Molecule,V5 Sera_Nanoparticles Quantitative Value (Normalized Total Spectra)
1,B1,13.055
2,B2,11.967
3,B3,10.879
4,B4,10.879
5,B5,10.879
6,B6,9.7913
7,B7,9.7913
8,B8,9.7913
9,B9,9.7913
10,B10,9.7913

# Same assay, conditions: IAV day 5 (V5) mouse sera alone, no NPs (sera-only control)
row,Molecule,V5 Sera Alone (Control) Quantitative Value (Normalized Total Spectra)
1,B1,2.7757
2,B2,23.131
3,B3,12.953
4,B4,4.6261
5,B5,6.4766
6,B6,16.654
7,B7,11.103
8,B8,6.4766
9,B9,9.2523
10,B10,6.4766
